Test results as given in patent US20240000885A1 (priority 2020, published 2024).

Sequences of proteins named here, by UniProt entry; tags and fusion partners are left off. A change or cut given only in a name is not applied to a line headed by its entry. Residues count along the entry.
UniProt Q9ULV0, 902-1848 limits assumed: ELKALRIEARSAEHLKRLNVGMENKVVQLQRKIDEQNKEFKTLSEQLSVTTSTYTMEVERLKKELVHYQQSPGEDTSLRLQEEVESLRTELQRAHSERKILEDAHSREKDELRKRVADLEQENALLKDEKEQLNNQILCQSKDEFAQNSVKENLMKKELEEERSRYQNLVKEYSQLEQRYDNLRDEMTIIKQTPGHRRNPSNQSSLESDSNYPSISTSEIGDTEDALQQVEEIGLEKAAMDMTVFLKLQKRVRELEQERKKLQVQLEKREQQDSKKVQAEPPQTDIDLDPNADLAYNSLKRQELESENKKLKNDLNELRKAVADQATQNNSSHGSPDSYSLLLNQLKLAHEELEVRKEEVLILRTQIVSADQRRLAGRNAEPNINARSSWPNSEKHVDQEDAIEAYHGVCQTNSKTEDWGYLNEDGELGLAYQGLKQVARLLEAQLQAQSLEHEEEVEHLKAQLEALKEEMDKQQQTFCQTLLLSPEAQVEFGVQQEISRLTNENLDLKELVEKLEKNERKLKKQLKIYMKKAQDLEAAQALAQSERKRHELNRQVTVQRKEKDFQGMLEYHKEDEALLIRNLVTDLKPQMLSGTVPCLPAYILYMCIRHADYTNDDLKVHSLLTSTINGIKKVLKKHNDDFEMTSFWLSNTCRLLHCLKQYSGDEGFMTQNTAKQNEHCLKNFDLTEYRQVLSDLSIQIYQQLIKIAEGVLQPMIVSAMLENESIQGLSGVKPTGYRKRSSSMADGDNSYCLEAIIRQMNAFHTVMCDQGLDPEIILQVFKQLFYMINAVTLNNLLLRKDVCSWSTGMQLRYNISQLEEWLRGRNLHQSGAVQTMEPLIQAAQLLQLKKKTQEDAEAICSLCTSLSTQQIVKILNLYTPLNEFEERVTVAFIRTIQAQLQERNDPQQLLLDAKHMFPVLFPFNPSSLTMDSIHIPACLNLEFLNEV

Legend:
[1] = target: SARS CoV2 M-GFP and mCherry-MYO5B+D 902 Tail in A549 cells (UniProt P0DTC5+Q9ULV0, G89R/L57V); conditions: for effect on the co-localization of SARS CoV2 with MYO5B+D: 1 μM
[2] = target: SARS CoV2 M-GFP and mCherry-MYO5B+D 902 Tail in MDCK cells (UniProt P0DTC5+Q9ULV0, G89R/L57V); conditions: for effect on the co-localization of SARS CoV2 with MYO5B+D: 1 μM
[3] = 10 pM to 1 pM (so in the source), 24 hours

| Compound | effect on the co-localization of SARS CoV2 with MYO5B+D [1] | effect on the co-localization of SARS CoV2 with MYO5B+D [2] | lowest concentration causing loss of localization between SARS CoV2 M and MYO5B+D [1, 3] | effect on colocalization of SARS CoV2 M-GFP with 902 Tail ([1]; FIG. 21B, 24 hours) | lowest concentration causing loss of localization between SARS CoV2 M and MYO5B+D [2, 3] | effect on colocalization of SARS CoV2 M-GFP with 902 Tail ([2]; FIG. 21A, 24 hours) |
| --- | --- | --- | --- | --- | --- | --- |
| CN/C(=N/CCSCc1nc[nH]c1C)NC#N [Cimetidine] | no effect | no effect |  |  |  |  |
| NC(N)=Nc1nc(CSCCC(N)=NS(N)(=O)=O)cs1 [Famotidine] | no effect | no effect |  |  |  |  |
| CNC(=C[N+](=O)[O-])NCCSCc1csc(CN(C)C)n1 [Nizatidine] |  |  | 10 pM | disrupts the colocalization | 10 pM | disrupts the colocalization |
